## Positions that govern dimerization of the HIV-1 5' RNA

The 5' region of HIV-1 NL4-3 RNA (positions 1-437):
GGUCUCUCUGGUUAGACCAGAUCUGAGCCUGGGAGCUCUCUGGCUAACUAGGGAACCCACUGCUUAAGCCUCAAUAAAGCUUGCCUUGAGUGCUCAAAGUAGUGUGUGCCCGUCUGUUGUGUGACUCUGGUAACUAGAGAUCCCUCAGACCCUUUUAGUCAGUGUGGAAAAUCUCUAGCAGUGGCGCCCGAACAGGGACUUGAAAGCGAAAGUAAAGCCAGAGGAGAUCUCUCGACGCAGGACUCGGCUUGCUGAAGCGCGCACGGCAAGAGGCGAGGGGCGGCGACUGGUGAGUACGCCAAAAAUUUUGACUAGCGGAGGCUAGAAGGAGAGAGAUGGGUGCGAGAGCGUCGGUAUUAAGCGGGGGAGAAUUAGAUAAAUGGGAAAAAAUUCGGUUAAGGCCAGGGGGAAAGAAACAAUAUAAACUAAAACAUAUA

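Mutant RNA libraries with 1G, 2G or 3G starts, with or without cap, were folded at 37 °C for 30 min. Monomer and dimer bands were cut from native gels after folding in high salt (300 mM KCl, 5 mM MgCl2) or low salt (40 mM KCl, 0.1 mM MgCl2). Mutation frequencies in the two bands give Kdimer.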

Scale: median log2 Kdimer over the changes at a position; positive = changes inhibit dimerization, negative = changes enhance it. One numbering serves 1G, 2G and 3G. A position is written with its base.

G237 read 1G capped high-salt 1.11; 1G uncapped low-salt 0.66. C238 read 1G capped high-salt 2.54; 1G uncapped low-salt 1.59. With A239 the assay gave 1G capped high-salt -0.41; 1G uncapped low-salt -0.31. With G240 the assay gave 1G capped high-salt -0.36; 1G uncapped low-salt -0.36. With G241 the assay gave 1G capped high-salt -0.21; 1G uncapped low-salt -0.57. A242 read 1G capped high-salt 0.80; 1G uncapped low-salt 1.52.

C243 (domain SL1) gave 1G capped high-salt 0.60; 1G uncapped low-salt 1.06. U244 (domain SL1) read 1G capped high-salt 0.49; 1G uncapped low-salt 1.98. C245 (domain SL1) read 1G capped high-salt 0.91; 1G uncapped low-salt 1.61. G246 (domain SL1) read 1G capped high-salt 1.16; 1G uncapped low-salt 1.87. With G247 (domain SL1) the assay gave 1G capped high-salt -0.76; 1G uncapped low-salt -1.19. C248 (domain SL1) read 1G capped high-salt 0.72; 1G uncapped low-salt 0.71.

For U249 (domain SL1) the result was 1G capped high-salt 1.23; 1G uncapped low-salt 1.77. With U250 (domain SL1) the assay gave 1G capped high-salt 2.55; 1G uncapped low-salt 1.74. G251 (domain SL1) gave 1G capped high-salt 3.65; 1G uncapped low-salt 4.50. C252 (domain SL1) gave 1G capped high-salt 3.11; 1G uncapped low-salt 3.21. With U253 (domain SL1) the assay gave 1G capped high-salt 1.85; 1G uncapped low-salt 2.14. For G254 (domain SL1) the result was 1G capped high-salt 2.13; 1G uncapped low-salt 2.11.

With A255 (domain SL1) the assay gave 1G capped high-salt -0.24; 1G uncapped low-salt -0.47. A256 (domain SL1) gave 1G capped high-salt 0.87; 1G uncapped low-salt 1.90. For G257 (domain SL1) the result was 1G capped high-salt 3.37; 1G uncapped low-salt 1.31. With C258 (domain SL1) the assay gave 1G capped high-salt 3.93; 1G uncapped low-salt 3.66. G259 (domain SL1) read 1G capped high-salt 4.39; 1G uncapped low-salt 4.27. C260 (domain SL1) gave 1G capped high-salt 3.91; 1G uncapped low-salt 4.08.

For G261 (domain SL1) the result was 1G capped high-salt 4.35; 1G uncapped low-salt 4.47. C262 (domain SL1) read 1G capped high-salt 3.23; 1G uncapped low-salt 3.46. A263 (domain SL1) gave 1G capped high-salt 0.01; 1G uncapped low-salt 1.12. C264 (domain SL1) read 1G capped high-salt 1.77; 1G uncapped low-salt 3.09. G265 (domain SL1) gave 1G capped high-salt 2.64; 1G uncapped low-salt 3.09. With G266 (domain SL1) the assay gave 1G capped high-salt 4.32; 1G uncapped low-salt 4.13.

C267 (domain SL1) read 1G capped high-salt 3.50; 1G uncapped low-salt 3.42. A268 (domain SL1) read 1G capped high-salt 3.00; 1G uncapped low-salt 3.12. For A269 (domain SL1) the result was 1G capped high-salt 1.62; 1G uncapped low-salt 1.60. For G270 (domain SL1) the result was 1G capped high-salt 1.47; 1G uncapped low-salt 0.75. A271 (domain SL1) read 1G capped high-salt -0.48; 1G uncapped low-salt -0.34. G272 (domain SL1) gave 1G capped high-salt -0.59; 1G uncapped low-salt -0.44.

With G273 (domain SL1) the assay gave 1G capped high-salt -0.58; 1G uncapped low-salt -0.58. C274 (domain SL1) gave 1G capped high-salt 0.53; 1G uncapped low-salt 1.03. For G275 (domain SL1) the result was 1G capped high-salt 2.55; 1G uncapped low-salt 2.41. For A276 (domain SL1) the result was 1G capped high-salt 3.03; 1G uncapped low-salt 2.99. For G277 (domain SL1) the result was 1G capped high-salt 2.57; 1G uncapped low-salt 2.38. With G278 the assay gave 1G capped high-salt 0.38; 1G uncapped low-salt 0.43.

For G279 the result was 1G capped high-salt -0.26; 1G uncapped low-salt -0.07. With G280 the assay gave 1G capped high-salt -0.07; 1G uncapped low-salt -0.62. C281 read 1G capped high-salt 0.88; 1G uncapped low-salt 0.37. With G282 the assay gave 1G capped high-salt 0.43; 1G uncapped low-salt 0.93. G283 (domain SL2) gave 1G capped high-salt -0.13; 1G uncapped low-salt -0.09. With C284 (domain SL2) the assay gave 1G capped high-salt 0.37; 1G uncapped low-salt 0.54.

The first 4 entries again:

position	domain	1G capped high-salt	1G uncapped low-salt
G237	none	1.11	0.66
C238	none	2.54	1.59
A239	none	-0.41	-0.31
G240	none	-0.36	-0.36

Values reported by Ye et al. 2022 (doi:10.1038/s41594-022-00746-2).